The values below come from PubChem BioAssay AID1918990.

This is a selection; strong and weak results do not stand in their true shares. Activity calls are given as the source filed them.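 Rule for the calls: active = replicate mean overnight rise in green fluorescent reporter signal, 3 or more SD over negative controls; inactive = the rest.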

This test is described as follows: activators of Burkholderia fixLJ two-component system, primary screen, B. multivorans, GFP reporter (AID 1918990). The following applies: B. multivorans fixK-promoter GFP reporter, 18 h; stronger effect = higher value.
For the compound `Cc1ncn(C)c1C(=O)NCC1(N2CCOCC2)CCCCC1`, the z-score is inactive: -0.46. As to `CCN(C)C1(CNC(=O)c2cc(C(C)C)nn2C)CCCCC1`, the z-score is inactive: 0.17.
